Results of unrelated studies side by side (data: NIAID ChemDB).

Shared fields: tests in culture; agent: Mycobacterium tuberculosis

ECn is the concentration giving n% inhibition of infection, replication or growth. MIC bound comes from a single tested concentration. Lines come from different laboratories, so protocols vary. a–b is a range or a potency band. A number after MIC or MFC names an inhibition level or a share of isolates. Inhibition is in % at the dose shown (toxicity tests: loss of growth or viability). Blank or dashed fields: not listed here.

structure,endpoint,method,strain or isolate,tested at,cells,result
CN(C)C/C=C(\c1ccc(I)cc1)c1ccc(-c2ccc(Br)cc2)cc1,MIC,,ALI 258,,,≤4 µg/mL
Nc1ncc(Cc2ccc(OCCc3ccccc3)cc2)c(N)n1,MIC,,H37Rv,,,100 µM
COc1cc([C@H]2Oc3c(OC)cc(/C=C/C=O)cc3[C@@H]2COC(C)=O)ccc1O,MIC,,H37Rv (ATCC 27294),,,64 µg/mL
CN[C@@H]1[C@H](O[C@H]2[C@H](O[C@H]3[C@H](O)[C@@H](O)[C@H](N=C(N)N)[C@@H](O)[C@@H]3N=C(N)N)O[C@@H](C)[C@]2(O)C=O)O[C@@H](CO)[C@H](O)[C@H]1O,MIC,broth dilution,ATCC 35820,,,>200 µg/mL
CCOc1ccc(Cc2cnc(N)nc2N)cc1OC,MIC,,H37Rv,,,>117 µM
CC1COc2c(N3CCN(C)CC3)c(F)cc3c(=O)c(C(=O)O)cn1c23,MIC90,,100 isolates,,,>4 µg/mL
CN(C)CCOC(C)(c1ccccc1)c1ccc(Cl)cc1,MIC,,H37Ra,,,16 µg/mL
O=C1c2cc(I)ccc2-n2c1nc1ccccc1c2=O,MIC,,H37Rv,,,≤0.2 µg/mL
CCCCCCCCN1C(=O)CS(=O)C12CCCCC2,inhibition,resazurin,H37Ra,25 µg/mL,,5%
CCCCCCCCOc1ccc(Cc2cnc(N)nc2N)cc1OC,MIC,,H37Rv,,,22.3 µM
CCCCCCCCCCCCN1C(=O)C(CC(=O)O)SC12CCN(OC(=O)C(C)(C)C)CC2,inhibition,resazurin,H37Ra,25 µg/mL,,96%
O=C1CN(CCCN2c3ccccc3Sc3ccc(C(F)(F)F)cc32)CC(=O)N1,MIC bound,BACTEC,H37Rv,,,>12.5 µg/mL
CCC1CCC2CN(/N=C/c3c4c(O)c5c(O)c(C)c6c(c5c3O)C(=O)[C@@](C)(O/C=C/[C@H](OC)[C@@H](C)[C@@H](OC(C)=O)[C@H](C)[C@H](O)[C@H](C)[C@@H](O)[C@@H](C)/C=C/C=C(/C)C(=O)N4)O6)CCN2C1,MIC,,H37Rv,,,0.03 µg/mL
CC(=O)OC12c3ccccc3C(c3ccccc31)C1C(=O)N(c3ccccc3O)C(=O)C12,inhibition,BACTEC,H37Rv,12.5 µg/mL,,-1%
Cc1nn(-c2ccccc2)c(Cl)c1-c1nc(N)nc2c1c(C)nn2-c1ccc(S(=O)(=O)O)cc1,MIC,resazurin,H37Rv,,,3.25 µg/mL
O=c1oc2c(-c3ccccc3)n[nH]c(=O)c2c2c1CCCC2,MIC bound,BACTEC,H37Rv,,,>12.5 µg/mL
[C-]#[N+][C@@]12[C@@](C)(C=C)[C@H](Cl)C[C@@H]3C(C)(C)c4cccc5[nH]c(c(c45)[C@]31O)C(C)(C)[C@]21CO1,MIC90,resazurin,H37Rv,,,2 µM
CN(C)CC=C(c1ccccc1)c1ccc(-c2ccc(Br)cc2)cc1,MIC,,H37Rv,,,10 µg/mL
COc1cc(C(C2=C(O)c3ccccc3C(=O)C2=O)C2=C(O)c3ccccc3C(=O)C2=O)cc(OC)c1OC,MIC,BACTEC,H37Rv,,,≥12.8 µg/mL
COc1nc2ccc(Br)cc2cc1[C@@H](c1ccccc1)[C@@](O)(CCN(C)C)c1cccc2ccccc12,MIC90,turbidity / fluorescence,H37Rv-LP,,,0.24 µM
COc1cc(Cc2cnc(N)nc2N)ccc1OCCc1ccccc1,MIC,,H37Rv,,,34.2 µM
Clc1ccc(Cn2c(CN3CCCC3)nc3ccccc32)cc1,MIC,,H37Ra,,,32 µg/mL
O=C1c2ccc(Cl)cc2-n2c1nc1ccccc1c2=O,MIC,,MDR 10038,,,1 µg/mL
CCCCCCCCO[C@H]1O[C@H](CO)[C@@H](O[C@H]2O[C@H](CO)[C@@H](N)[C@@H]2O)[C@@H]1O,inhibition,,H37Rv,6.25 µg/mL,,10%
CO[C@H]1/C=C/O[C@@]2(C)Oc3c(C)c(O)c4c(O)c(c5c(c4c3C2=O)NC2(CCN(CC(C)C)CC2)N=5)=NC(=O)/C(C)=C\C=C\[C@H](C)[C@H](O)[C@@H](C)[C@@H](O)[C@@H](C)[C@H](OC(C)=O)[C@@H]1C,MIC,,H37Rv,,,0.0025–0.0052 µg/mL
CCCCCc1ccc(Oc2nc(OC)cc(OC)n2)c(O)c1,MIC90,broth dilution / visual reading,,,,100 µg/mL
O=C1c2cc(F)ccc2-n2c1nc1ccc(F)cc1c2=O,MIC,,H37Rv,,,1 µg/mL
CCOC(=O)C(=O)Nc1nc2c(s1)C(=O)c1ccccc1C2=O,MIC,,H37Rv,,VERO,3.13 µg/mL
CN(C)C/C=C(\c1ccc(N)cc1)c1ccc(-c2ccc(Br)cc2)cc1,MIC,,ALI 909,,,39 µg/mL
C=C[C@@]1(C)CC[C@@]2(O)C3=C1C=C(C#N)C(C)(C)c1[nH]c4cccc(c4c13)C2(C)C,MIC90,resazurin,H37Rv,,,>100 µM
CCCCCCCCCCCCN1C(=O)CSC12CCCCC2,EC50,resazurin,H37Ra,,,>25 µg/mL
CCCCCCCCO[C@H]1O[C@H](CO)[C@@H](O[C@H]2O[C@H](CO)[C@@H](N=[N+]=[N-])[C@@H]2O)[C@@H]1O,inhibition,,H37Rv,6.25 µg/mL,,17%
Cc1ccc(NP2(Nc3ccc(C)cc3)=NP(Nc3ccc(C)cc3)(N3CC3)=NP(Nc3ccc(C)cc3)(N3CC3)=N2)cc1,MIC,,ETA-R,,,6.4 µg/mL
O=C1c2ccccc2-n2c1nc1ccsc1c2=O,MIC,,MDR 10038,,,5 µg/mL
Cc1ccc(-n2cc(-c3ccc(Cl)cc3)c3c(NNC(=S)NCc4ccccc4)ncnc32)cc1,inhibition,BACTEC,H37Rv,12.5 µg/mL,,75%
CN1CCC(=C2C3=C(CCc4ccccc42)SCC3)CC1,MIC,,H37Ra,,,16 µg/mL
CCCCCCCCCCCCN1C(=O)C(CC(=O)O)SC12CCCCC2,EC50,resazurin,H37Ra,,,<25 µg/mL
CO[C@@]12[C@H](COC(N)=O)C3=C(C(=O)C(C)=C(N)C3=O)N1C[C@H]1[C@@H]2N1C(=O)c1ccc(Cl)c(Cl)c1,MIC,,H37Rv,,VERO,0.03 µg/mL
CN(C)CCOc1ccccc1Cc1ccccc1,MIC,,H37Ra,,,16 µg/mL
Nc1ncc(Cc2ccc(OCCCc3ccccc3)cc2)c(N)n1,MIC,,H37Rv,,,12 µM
CC(C)OC(=O)c1cc(N)ccc1Cl,inhibition,BACTEC,H37Rv,12.5 µg/mL,,7%
CCCCCCCCCCCCN1C(=O)C(CC(=O)O)SC12CCCCCC2,inhibition,resazurin,H37Ra,25 µg/mL,,96%
Cc1cc(=O)n(-c2ccccc2)c2[nH]n(-c3ccccc3)c(=O)c12,MIC bound,resazurin,H37Rv,,,>6.25 µg/mL
O=C1Oc2ccccc2[C@@]12[C@H](c1ccccc1)[C@H]1CSCN1[C@]21C(=O)Nc2ccc(Br)cc21,MIC,agar,H37Rv,,,12.5 µg/mL
CN[C@@H]1[C@H](O)[C@H](NC)[C@H]2O[C@@]3(O)[C@H](NC(=O)Cc4ccncc4)C[C@@H](C)C[C@H]3O[C@@H]2[C@H]1O,MIC,broth dilution,H37Rv,,,100 µg/mL
Cl.N=C(N)c1ccc(NN=Nc2cccc3c2Oc2ccccc2O3)cc1,MIC bound,BACTEC,H37Rv,,,>12.5 µg/mL
O=C1c2cc([N+](=O)[O-])ccc2-n2c1nc1ccc(Cl)cc1c2=O,MIC,,H37Rv,,,<1 µg/mL
O=C1C2=Cc3ccccc3OC2(O)Oc2cc(O)cc(O)c21,MIC bound,BACTEC,H37Rv,,,>12.5 µg/mL
Cc1ccc(C(F)(F)F)cc1CNCc1cc(C(=N)C2CC2)c(Nc2ccccc2)[nH]c1=O,MBC,broth dilution,H37Rv,,,<0.5 µM
CN[C@@H]1[C@H](O)[C@H](NC)[C@H]2O[C@@]3(O)[C@H](NC(=O)c4ccccn4)C[C@@H](C)C[C@H]3O[C@@H]2[C@H]1O,MIC,broth dilution,H37Rv,,,100 µg/mL
CCCCCCCCO[C@H]1O[C@H](CO[C@H]2O[C@H](CO)[C@@H](N)[C@@H]2O)[C@@H](O)[C@@H]1O,EC50,,H37Rv,,,>6.25 µg/mL
CCCCCCCCCCCC(=O)N[C@@H]1C[C@@H](C)C[C@H]2O[C@@H]3[C@@H](O)[C@H](NC)[C@H](O)[C@H](NC)[C@H]3O[C@@]12O,MIC,broth dilution,H37Rv,,,12.5 µg/mL
CCc1nc2ccc(C)cc2n1CCCCOc1ccccc1,MIC90,turbidity / fluorescence,H37Rv-MA,,,0.78 µM
CCCCCCCCCCCCN1C(=O)C(CC(=O)O)SC12CCN(C(=O)C(N)C(C)CC)CC2,inhibition,resazurin,H37Ra,25 µg/mL,,97%
Cc1cc2c(cc1Cl)SC(NNC(=O)c1ccccc1)=NS2(=O)=O,inhibition,resazurin,H37Rv,6.25 µg/mL,,-5%
CN1CCC(=C2c3ccccc3CC(=O)c3sccc32)CC1,MIC,,H37Ra,,,128 µg/mL
CCCCCCCCCCCCN1C(=O)C(C)SC12CCCCC2,EC50,resazurin,H37Ra,,,>25 µg/mL
OO,inhibition,colony count,H37Rv,500 µM,,17%
O=[N+]([O-])c1ccc2oc3cccnc3c2c1,MIC bound,BACTEC,H37Rv,,,>12.5 µg/mL
C.C=C1C[C@@]23CCC4[C@@](C)(CCC[C@@]4(C)C(=O)NNC(=O)c4cccnc4)C2CC[C@]1(O[C@@H]1O[C@H](COC(=O)O)[C@@H](OC(=O)O)[C@H](OC(=O)O)[C@H]1OC1O[C@H](COC(C)=O)[C@@H](OC(=O)O)[C@H](OC(=O)O)[C@H]1OC(=O)O)C3,MIC,,H37Rv,,,10 µg/mL
CCn1cc(C(=O)O)c(=O)c2cc(F)c(N3CCNCC3)cc21,MIC90,,100 isolates,,,>16 µg/mL
CN(C)CC=C(c1ccc(Br)cc1)c1ccc(-c2ccc(Br)cc2)cc1,MIC,,ALI 452,,,≤4 µg/mL
O=C1C[C@@H](c2ccc(O)cc2)Oc2cc(O)cc(O)c21,MIC,BACTEC,H37Rv,,,128 µg/mL
C=C1C[C@]23CCC4[C@@](C)(CCC[C@@]4(C)C(=O)O)C2CC[C@@]1(C)C3,MIC,,H37Rv,,,50 µg/mL
CCCCCCCCCCCCN1C(=O)C(CC(=O)O)SC12CCNCC2,EC50,resazurin,H37Ra,,,>25 µg/mL
O=C1NC(=O)[C@@]2(CC[C@@H](O)C2)c2ccncc21,MIC bound,BACTEC,H37Rv,,,>12.5 µg/mL
CO[C@H]1/C=C/O[C@@]2(C)Oc3c(C)c(O)c4c(O)c(c(/C=N/N5CCN(C)CC5)c(O)c4c3C2=O)NC(=O)/C(C)=C\C=C\[C@H](C)[C@H](O)[C@@H](C)[C@@H](O)[C@@H](C)[C@H](OC(C)=O)[C@@H]1C,MIC90,turbidity / fluorescence,H37Rv-MA,,,0.036 µM
CCOC(=O)c1[nH]c(-c2[nH]c(-c3[nH]c(-c4[nH]c(C(=O)OCC)c(C)c4C(=O)OCC)c(C(=O)OCC)c3C)c(C)c2C(=O)OCC)c(C(=O)OCC)c1C,MIC bound,BACTEC,H37Rv,,,>12.5 µg/mL
Cc1nn(-c2ccccc2)c(Cl)c1-c1nc(N)nc2c1c(C)nn2-c1cccc(S(=O)(=O)O)c1,MIC,resazurin,H37Rv,,,3.25 µg/mL
COC1(CO)C(=O)N(C)CC(=O)N1C,MIC,,CS-R,,,6.3 µg/mL
CCCCCCCCO[C@H]1O[C@H](CO[C@@H]2[C@@H](OCCCCCCCC)O[C@H](CO)[C@H]2OC)[C@@H](O[C@@H]2O[C@H](O)[C@@H](OC)[C@@H]2O)[C@@H]1O,inhibition,,H37Rv,6.25 µg/mL,,20%
Cc1c(C(=O)/C=C/c2ccccc2[N+](=O)[O-])[n+](=O)c2ccccc2n1[O-],MIC,,PZA-R,,,1.6 µg/mL
Cc1ccc(C(F)(F)F)cc1CNCc1cc(C(=N)C(C)C)c(Nc2ccccc2)[nH]c1=O,MIC,broth dilution,H37Rv,,,0.4 µM
CC(=O)NC1C(Sc2ncn(C3OC(CO)C(O)C(O)C3NC(C)=O)n2)OC(CO)C(O)C1O,MIC bound,resazurin,H37Rv,,,>6.25 µg/mL
CO[C@H]1/C=C/O[C@@]2(C)Oc3c(C)c(O)c4c(O)c(c(/C=N/N5CCN(C6CCCC6)CC5)c(O)c4c3C2=O)NC(=O)/C(C)=C\C=C\[C@H](C)[C@H](O)[C@@H](C)[C@@H](O)[C@@H](C)[C@H](OC(C)=O)[C@@H]1C,MIC,,H37Rv,,,0.017 µg/mL

For reference, 6 entries again:

structure	endpoint	method	strain or isolate	tested at	cells	result
Cc1cc2c(cc1Cl)SC(NNC(=O)c1ccccc1)=NS2(=O)=O	inhibition	resazurin	H37Rv	6.25 µg/mL		-5%
CCCCCCCCCCCCN1C(=O)CSC12CCCCC2	EC50	resazurin	H37Ra			>25 µg/mL
CCn1cc(C(=O)O)c(=O)c2cc(F)c(N3CCNCC3)cc21	MIC90		100 isolates			>16 µg/mL
O=C1c2ccc(Cl)cc2-n2c1nc1ccccc1c2=O	MIC		MDR 10038			1 µg/mL
CCC1CCC2CN(/N=C/c3c4c(O)c5c(O)c(C)c6c(c5c3O)C(=O)[C@@](C)(O/C=C/[C@H](OC)[C@@H](C)[C@@H](OC(C)=O)[C@H](C)[C@H](O)[C@H](C)[C@@H](O)[C@@H](C)/C=C/C=C(/C)C(=O)N4)O6)CCN2C1	MIC		H37Rv			0.03 µg/mL
CC(C)OC(=O)c1cc(N)ccc1Cl	inhibition	BACTEC	H37Rv	12.5 µg/mL		7%